Results of unrelated studies side by side (data: NIAID ChemDB).

All rows: tests on isolated targets

Blank or dashed fields: not listed here. Neighbouring rows are from separate reports. Inhibition is in % at the dose shown (toxicity tests: loss of growth or viability). ICn is the concentration giving n% inhibition. a–b is a range or a potency band.

SMILES	target	read by	measure	changes	dose	value
C=C1CN(S(=O)(=O)c2ccc(CBr)cc2)CCCN(Cc2ccccc2)CCCN(S(=O)(=O)c2ccc(CBr)cc2)C1	CD4	-	IC50	-	-	12.9 µM
c1ccc(CNCc2ccc(CN3CCNCCc4cccc(c4)CCNCC3)cc2)nc1	CXCR4	calcium flux	IC50	-	-	<1 µg/mL
Nc1ccc2ncnc(NCCc3ccc(OCc4ccccc4)cc3)c2c1	Nuclear factor-kappa B	luciferase	IC50	-	-	0.014 µM
CCCCCCCC1C[C@@H]2CCc3c(C(=O)OCCCCCCC[C@@H]4C[C@@H]5CC[C@H]6C[C@@H](C)N=C(N4O)N56)c(C)nc([n+]32)N1	CD4	-	IC50	-	-	7.1 µM
O=C(O)c1ccc(O)c(O)c1	CD4	flow cytometry	inhibition	-	20 µg/mL	56%
Cn1c2ccccc2c(=O)c2c(O)cccc21	Protein kinase C	nucleotide incorporation	inhibition	-	100 µg/mL	77.8 ± 12%
OCCOCCN1CCN(Cc2cccc(Oc3ccccc3)c2)CC1	CCR8	radiometric	IC50	-	-	1.8 µM
O=C(NCc1cccnc1)C(=O)N/N=C\c1ccc(-c2cccc(Cl)c2)o1	Cyclophilin A	absorbance	IC50	-	-	34.86 µM
Clc1cc(CN2CCCNCCNCCCNCC2)cc(Cl)n1	CXCR4	-	IC50	CXCR4-H203A	-	2.47 µM
Cn1c2ccccc2c(=O)c2c(O)cccc21	Protein kinase C	nucleotide incorporation	inhibition	-	0.8 µg/mL	18%
Oc1cccc(O)c1O	CD4	flow cytometry	inhibition	-	20 µg/mL	76%
O=C(/C=C/c1cc(Br)ccn1)/C=C/c1cc(Br)ccn1	Nuclear factor-kappa B	-	IC50	-	-	2.71 µM
Nc1nccc2c1ncn2[C@@H]1C[C@H](O)[C@@H](O)[C@H]1O	S-adenosylhomocysteine hydrolase	radiometric	Ki	-	-	0.83 µM
Cc1c(-c2ccccc2)c(=O)oc2ccccc12	Tat:TAR/LTR	-	IC50	-	-	>100 µM
O=C(/C=C/c1ccccn1)/C=C/c1ccccn1	Nuclear factor-kappa B	-	IC50	-	-	0.52 µM
C/C(=N\N=C(N)N)c1cc(NC(=O)CCCCCCCCC(=O)Nc2cc(/C(C)=N/N=C(N)N)cc(/C(C)=N/N=C(N)N)c2)cc(/C(C)=N/N=C(N)N)c1	Deoxyhypusine synthase	radiometric	IC50	-	-	1 µM
COc1ccnc2[nH]cc(C(=O)C(=O)N3CCN(C(=O)c4ccccc4)C[C@H]3C)c12	gp120	radiometric	IC50	-	-	~60 µM
O=C(/C=C/c1ncc(F)cc1F)/C=C/c1ncc(F)cc1F	Nuclear factor-kappa B	-	IC50	-	-	0.78 µM
COc1ccc(C[C@H](C[C@H](O)[C@H](Cc2ccccc2)NC(=O)OC(C)(C)C)C(=O)N[C@H](C(=O)N[C@@H](Cc2ccccc2)C(=O)N2CCOCC2)C(C)C)cc1	Cathepsin D	-	IC50	-	-	0.015 µM
COc1ccc2c(Cc3c4ccccc4cc4ccccc34)cncc2c1O	VP40:TSG101	-	IC50	-	-	11.9 µM
Cc1cccnc1/C=C/C(=O)/C=C/c1ncccc1C	Nuclear factor-kappa B	-	IC50	-	-	1.06 µM
COc1c(-c2ccccc2)c2ccccc2[nH]c1=O	Tat:TAR/LTR	-	IC50	-	-	5 µM
C=C1CN(S(=O)(=O)c2ccc(C)cc2)CCCN(C(C)C)CCCN(S(=O)(=O)c2ccc(C)cc2)C1	CD4	-	IC50	-	-	11 µM
c1ccc(N2CCCCC2)c(NCc2ccc(CN3CCCNCCNCCCNCC3)cc2)c1	CCR5	fluorescence	inhibition	-	10 µM	60%
CC[C@H](C)[C@H](N)C(=O)N[C@@H](CC(N)=O)C(=O)N[C@@H](CC(N)=O)C(=O)N[C@H](C(=O)N1CCC[C@H]1C(=O)N[C@@H](Cc1c[nH]c2ccccc12)C(=O)N[C@@H](CO)C(=O)O)[C@@H](C)CC	gp120	ELISA	IC50	[S375W]GP120	-	>200 µM
O=C(CSc1nc2ccc(NC(=O)c3ccccc3C(=O)O)cc2s1)NCc1ccccc1	Cyclophilin A	absorbance	IC50	-	-	65.7 µM
O=c1c(O)cc([C@H]2Oc3cc(O)cc(O)c3C[C@H]2O)cc2c([C@H]3Oc4cc(O)cc(O)c4C[C@H]3O)cc(O)c(O)c12	CXCR4	ELISA	inhibition	-	20 µM	13%
O=S(=O)(c1cccc2cnccc12)N1CCNCC1	Protein kinase C	nucleotide incorporation	inhibition	-	100 µg/mL	64.4 ± 8%
O=C(O)/C=C/c1ccc(O)c(O)c1	CD4	flow cytometry	IC50	-	-	4–20 µM
NC(N)=NCCC[C@@H]1NC(=O)[C@@H](NC(=O)CCN=C(N)N)CSSC[C@H](C(=O)NCCc2ccc(O)cc2)NC(=O)[C@H](Cc2ccc3ccccc3c2)NC1=O	CXCR4	radiometric	IC50	-	-	~1 µM
O=C1C=CC(=C(c2ccc(O)cc2)c2ccc(O)cc2)C=C1	CD4	flow cytometry	inhibition	-	100 µg/mL	0%
C[C@H](NC(=O)[C@H](CCCNC1CCCc2ccccc21)NC(=O)c1ccc(CNCc2ncc[nH]2)cc1)c1cccc2ccccc12	CXCR4	radiometric	IC50	-	-	<0.1 µM
c1ccc(CNCc2ccc(CN3CCNCCc4cccc(n4)CCNCC3)cc2)nc1	CXCR4	calcium flux	IC50	-	-	<1 µg/mL
O=C(Oc1cc(O)cc2c1C[C@@H](OC(=O)c1cc(O)c(O)c(O)c1)[C@@H](c1cc(O)c(O)c(O)c1)O2)c1cc(O)c(O)c(O)c1	CXCR4	ELISA	IC50	-	-	>20 µM
C=C1CN(S(=O)(=O)c2ccc(C)cc2)CCCN(C(C)=O)CCCN(S(=O)(=O)c2ccc(C)cc2)C1	CD4	-	IC50	-	-	18.7 µM
Nc1nccc2c1ncn2[C@@H]1O[C@H](CO)[C@@H](O)[C@H]1O	S-adenosylhomocysteine hydrolase	radiometric	Ki	-	-	3.9 µM
CCOc1ccccc1N(CC(=O)Nc1ccc(S(=O)(=O)Nc2cccc(C(F)(F)F)c2)cc1)S(C)(=O)=O	Cyclophilin A	absorbance	IC50	-	-	14.45 µM
C=C1CN(S(=O)(=O)c2ccc(C)cc2)CCCN(CC(C)C)CCCN(S(=O)(=O)c2ccc(C)cc2)C1	CD4	-	IC50	-	-	10.3 µM
C[C@H](NC(=O)[C@H](CCCN1CCCCCC1)NC(=O)c1ccc(CNCc2ncc[nH]2)cc1)c1cccc2ccccc12	CXCR4	radiometric	IC50	-	-	<0.1 µM
O=C(O)CS(=O)c1ccc2c3c(cccc13)C(=O)c1ccccc1-2	VP40:TSG101	-	IC50	-	-	11 µM
Cn1ccc2ccc(C(=O)N3C[C@@H](CN4CCC(c5ccccc5)CC4)[C@H](c4ccsc4)C3)cc21	CCR3	-	IC50	-	-	0.0008 µM
CC(C)C[C@H](NC(=O)C(NC(=O)[C@@H](N)C(C)C)c1cc(O)cc(O)c1)C(=O)N[C@@H](Cc1ccccc1)C(=O)C(=O)N[C@H](C(=O)N[C@H](C(=O)N[C@@H](CC(=O)O)C(=O)O)C(C)C)C(C)C	Cathepsin D	-	IC50	-	-	0.88 µM
O=C(O)Cc1ccc(O)c(O)c1	CD4	flow cytometry	IC50	-	-	2 µM
C=Cc1cccnc1/C=C/C(=O)/C=C/c1ncccc1C=C	Nuclear factor-kappa B	-	IC50	-	-	0.69 µM
Cn1cc(C(=O)O)c(=O)c2cc(N)c(N3CCN(c4ccccn4)CC3)cc21	Tat:TAR/LTR	fluorescence	IC50	-	-	710 µM
Nc1ncnc2c1ncn2[C@H]1CN[C@@H](CO)C1	Adenosine deaminase	-	Ki	-	-	85 µM
C=CCN(C(=O)OCc1ccccc1)C1CCN(CCC(C)(c2ccccc2)C2Nc3ccccc3S(=O)(=O)N2)CC1	CCR4	-	IC50	-	-	>1 µM
COc1cc(C)cc2c(-c3c(O)cc(O)c4c3C[C@H](C)N[C@H]4C)cc(-c3cc(-c4c(O)cc(O)c5c4C[C@H](C)N[C@H]5C)c4cc(C)cc(OC)c4c3O)c(O)c12	Protein kinase C	-	IC50	-	-	130 µM
CCCCCCCCC[C@H]1CC2CCC3C(C(=O)OCCCCCCCCCC4N=C(N)N5CCCC5=C4C(=O)OCCCCN=C(N)N)[C@@H](C)N=C(N1)N23	Protein kinase C	-	IC50	-	-	1.4 µM
C=C1CN(S(=O)(=O)c2ccc(C)cc2)CCCN(Cc2ccncc2)CCCN(S(=O)(=O)c2ccc(C)cc2)C1	CD4	-	IC50	-	-	4.7 µM
c1ccc(CNCc2ccc(CN3CCNCCNCCc4cccc(n4)CC3)cc2)nc1	CXCR4	calcium flux	IC50	-	-	<1 µg/mL
c1ccc(-c2cccc(NCc3ccc(CN4CCCNCCNCCCNCC4)cc3)c2)cc1	CCR5	fluorescence	inhibition	-	10 µM	61%
C=C1CN(S(=O)(=O)c2ccc(C)cc2)CCCN(CCC(C)C)CCCN(S(=O)(=O)c2ccc(C)cc2)C1	CD4	-	IC50	-	-	0.67 µM
O=C1c2ccccc2-[n+]2ccc3c([nH]c4ccccc43)c21	p56lck tyrosine kinase	ELISA	IC50	-	-	<700 µM
O=C(/C=C/c1cccnc1)/C=C/c1cccnc1	Nuclear factor-kappa B	-	IC50	-	-	2.42 µM
C=C1CN(S(=O)(=O)c2ccc(Br)cc2)CCCN(C(=O)OCC)CCCN(S(=O)(=O)c2ccc(Br)cc2)C1	CD4	-	IC50	-	-	14.4 µM
CCCCCCCC1C[C@@H]2CCc3c(C(=O)OCCCCCCC[C@@H]4C[C@@H]5CC[C@H]6C[C@@H](C)N(O)C(=N4)N56)c(C)nc([n+]32)N1	CD4	-	IC50	-	-	7.1 µM
CC(C)CN(CCO)CCC[C@H](NC(=O)c1ccc(CNCc2ncc[nH]2)cc1)C(=O)N[C@@H](C)c1cccc2ccccc12	CXCR4	radiometric	IC50	-	-	<0.1 µM
CN(C)CCCn1c2cc(=O)c(=O)cc-2sc2ccc(Cl)cc21	gp120	-	IC50	-	-	30 µg/mL
O=S(=O)(c1cccc2cnccc12)N1CCNCC1	Protein kinase C	nucleotide incorporation	inhibition	-	0.8 µg/mL	13.8%
NC(=O)C1=CN([C@@H]2O[C@H](COP(=O)(O)OP(=O)(O)OC[C@H]3O[C@@H](n4cnc5c(N)ncnc54)[C@H](O)[C@@H]3O)[C@@H](O)[C@H]2O)C=C[C@@H]1C(=O)c1ccccc1	InhA	-	Ki	-	-	<0.001 µM
O=C(/C=C/c1ncccc1-c1ccccc1)/C=C/c1ncccc1-c1ccccc1	Nuclear factor-kappa B	-	IC50	-	-	0.94 µM
C[C@H](NC(=O)[C@H](CCCNC1CCc2ccccc21)NC(=O)c1ccc(CNCc2ncc[nH]2)cc1)c1cccc2ccccc12	CXCR4	radiometric	IC50	-	-	<0.1 µM
c1ccc(CNCc2ccc(CN3CCCNCCNCCCNCC3)cc2)nc1	CXCR4	-	IC50	-	-	0.001 µg/mL
Nc1nccc2c1ncn2[C@H]1CC[C@@H](CO)C1	S-adenosylhomocysteine hydrolase	radiometric	Ki	-	-	50.5 µM
Cc1ccc(C(=O)Nc2ccc(S(=O)(=O)O)c3cc(S(=O)(=O)O)cc(S(=O)(=O)O)c23)cc1NC(=O)c1cccc(NC(=O)Nc2cccc(C(=O)Nc3cc(C(=O)Nc4ccc(S(=O)(=O)O)c5cc(S(=O)(=O)O)cc(S(=O)(=O)O)c45)ccc3C)c2)c1	cAMP-dependent protein kinase	-	IC50	-	-	656 µM
C=C1CN(S(=O)(=O)c2ccc(C)cc2)CCCN(Cc2ccc[nH]2)CCCN(S(=O)(=O)c2ccc(C)cc2)C1	CD4	-	IC50	-	-	7.15 µM
CCCN(CCC)CCC[C@H](NC(=O)c1ccc(CNCc2ncc[nH]2)cc1)C(=O)N[C@@H](C)c1cccc2ccccc12	CXCR4	radiometric	IC50	-	-	<0.1 µM

8 of the rows above, restated:

SMILES | target | read by | measure | changes | dose | value
c1ccc(-c2cccc(NCc3ccc(CN4CCCNCCNCCCNCC4)cc3)c2)cc1 | CCR5 | fluorescence | inhibition | - | 10 µM | 61%
CCCN(CCC)CCC[C@H](NC(=O)c1ccc(CNCc2ncc[nH]2)cc1)C(=O)N[C@@H](C)c1cccc2ccccc12 | CXCR4 | radiometric | IC50 | - | - | <0.1 µM
O=C(O)c1ccc(O)c(O)c1 | CD4 | flow cytometry | inhibition | - | 20 µg/mL | 56%
C=C1CN(S(=O)(=O)c2ccc(C)cc2)CCCN(CCC(C)C)CCCN(S(=O)(=O)c2ccc(C)cc2)C1 | CD4 | - | IC50 | - | - | 0.67 µM
Clc1cc(CN2CCCNCCNCCCNCC2)cc(Cl)n1 | CXCR4 | - | IC50 | CXCR4-H203A | - | 2.47 µM
c1ccc(CNCc2ccc(CN3CCCNCCNCCCNCC3)cc2)nc1 | CXCR4 | - | IC50 | - | - | 0.001 µg/mL
Cc1cccnc1/C=C/C(=O)/C=C/c1ncccc1C | Nuclear factor-kappa B | - | IC50 | - | - | 1.06 µM
O=C(CSc1nc2ccc(NC(=O)c3ccccc3C(=O)O)cc2s1)NCc1ccccc1 | Cyclophilin A | absorbance | IC50 | - | - | 65.7 µM